Measured values from several laboratories, pooled; numbers as filed in NIAID ChemDB.

Shared fields: whole-cell or culture tests; organism: HIV-1; endpoint: inhibition

Percent inhibition refers to the dose given; in toxicity tests it is the harm to the cells. Rows are shuffled and stem from different studies. Blank or dashed fields: not listed here.

CN=C1CN=C(c2ccc[nH]2)c2cc(Cl)ccc2N1 ; strain: N1T ; cells: Jurkat cells ; read by: antigen ; dose: 1 µM ; value: 90%
CCC(C)[C@H](NC(=O)[C@H](C(C)C)[C@@H](O)[C@H](O)[C@H](CC1CCCCC1)NC(=O)[C@@H](NC(=O)CCCCC1SC[C@@H]2NC(=O)NC12)C(C)C)C(=O)NCc1ccccn1 ; strain: D34 ; cells: PBMC ; read by: p24 ; dose: 0.1 µM ; value: 89%
Cc1nc(C(=O)C2CSCCN2)cc2c3ccccc3n(Cc3ccc(F)cc3)c12 ; strain: NL4-3 ; cells: CEM-GFP ; read by: p24 / ELISA / antigen ; dose: 23.84 µM ; value: 0%
C[C@@H](Cn1cnc2c(N)nc(N)nc21)OCP(=O)(O)O ; strain: BaL ; cells: Macrophage + Monocytes/macrophages ; read by: p24 / syncytia ; dose: 5 µM ; value: 97%
O=C(O)/C=C/c1ccc[c]([Sb](=[O])([OH])[OH])c1 ; strain: NL4-3 X4 ; cells: MAGI ; read by: β-galactosidase ; dose: 20 µM ; value: 71.4%
COCCNC(=O)[C@@H](NC(=O)[C@H](Cc1ccc(OC)c(OC)c1OC)C[C@H](O)[C@H](Cc1ccccc1)NC(=O)OC(C)(C)C)C(C)C ; cells: Macrophages HIV-1 + Macrophage ; setting: chronic infection, inside macrophages ; dose: 1 µM ; value: 100%
CCC(C)[C@H](NC(=O)[C@H](C(C)C)[C@@H](O)[C@H](O)[C@H](CC1CCCCC1)NC(=O)c1ccccc1SCCCCC[C@@H]1SC[C@@H]2NC(=O)NC21)C(=O)NCc1ccccn1 ; strain: D34 ; cells: PBMC ; dose: 0.001 µM ; value: 15%
[Se] ; strain: LAV ; cells: U1 ; read by: RT activity ; dose: 0.05 µg/mL ; value: 24%
O=C(O)CCCCCCCCCCCBr ; strain: IIIB ; cells: CEM + CEM-SS ; read by: cytopathic effect / XTT ; dose: 63.2 µM ; value: 78.6%
COc1ccc(CN[C@@H](C(=O)N[C@H](C(=O)NCc2nc3ccccc3[nH]2)C(C)C)[C@H](O)[C@H](Cc2ccccc2)NC(=O)[C@@H](NC(=O)OCc2ccccc2)C(C)(C)C)cc1 ; strain: K31 ; cells: Primary T4 lymphocytes + T4 ; read by: p24 ; setting: clinical isolate ; dose: 0.015 µM ; value: 90%
Nc1c(S(=O)(=O)O)cc2c3c(cc(S(=O)(=O)O)cc13)C(=O)N(NC(=O)N/N=C/c1cccc(C=O)c1)C2=O ; cells: MT-2 ; read by: syncytia ; dose: 800 µM ; value: 100%
COC(=O)[C@@H](C)NC(=O)c1c(C)cc2c(c1O)-c1c(cc3c(c1O)C(=O)c1cc(OC)cc(O)c1C3=O)[C@H](O)[C@H]2O[C@@H]1O[C@H](C)[C@H](N)[C@H](O[C@@H]2OC[C@@H](O)[C@H](O)[C@H]2O)[C@H]1O ; strain: IIIB ; cells: MT-4 ; read by: antigen ; dose: 30 µg/mL ; value: 15%
Cc1cn([C@H]2C[C@H](N=[N+]=[N-])[C@@H](CO)O2)c(=O)[nH]c1=O ; strain: CD 451 ; cells: PBL(PHA STIM.) + PBL ; read by: p24 / ELISA ; dose: 5 µM ; value: 100%
Cc1nc(C(=O)C2CSCCN2)cc2c3ccccc3n(Cc3ccccc3)c12 ; strain: NL4-3 ; cells: CEM-GFP ; read by: p24 / ELISA / antigen ; dose: 6.22 µM ; value: 0%
COc1ccccc1CN[C@H]1C2CCN(CC2)[C@H]1C(c1ccccc1)c1ccccc1 ; strain: 89.6 R5X4 isolate ; cells: Macrophage + Monocytes/macrophages ; read by: RT activity ; dose: 0.1 µM ; value: 24%
Cc1c(O)c(=O)ccn1C ; strain: BaL ; cells: Macrophage + Monocytes/macrophages ; read by: XTT / p24 ; dose: 100 µM ; value: 0%
O=c1[nH]cnc2c1ncn2[C@H]1CC[C@@H](CO)O1 ; strain: IIIB ; cells: PBMC ; read by: p24 ; dose: 0.5 µM ; value: 40%
COCCCCCCCCCCCC(=O)O ; strain: IIIB ; cells: CEM + CEM-SS ; read by: cytopathic effect / XTT ; dose: 20 µM ; value: 32%
Cc1cn([C@H]2C[C@H](N=[N+]=[N-])[C@@H](CO)O2)c(=O)[nH]c1=O ; strain: D747 ; cells: Monocytes + Monocyte ; read by: p24 / ELISA ; dose: 0.0025 µg/mL ; value: 90%
COc1cc(O)c2c(c1)C(=O)c1c(cc3c(c1O)-c1c(cc(C)c(C(=O)N[C@H](C)C(=O)O)c1O)[C@H](O[C@@H]1O[C@H](C)[C@H](N)[C@H](O[C@@H]4OC[C@@H](O)[C@H](O)[C@@H]4O)[C@H]1O)[C@H]3O)C2=O ; strain: IIIB ; cells: MOLT-4 ; read by: syncytia ; dose: 10 µg/mL ; value: 100%
CCCCn1c2c(c3ccccc31)C(C)=NC(CCCC)(C(=O)OC)C2 ; strain: NL4-3 ; cells: CEM-GFP ; read by: p24 / ELISA / antigen ; dose: 14.12 µM ; value: 0%
Nc1nc(Cl)nc2c1ncn2[C@H]1C=C[C@@H](CO)O1 ; strain: HXBc2 ; cells: C8166 ; read by: RT activity ; dose: 20 µM ; value: 75%
OC[C@@H]1[C@@H](O)[C@H](O)[C@@H](O)CN1CCCc1ccccc1 ; strain: IIIB ; cells: MOLT-4 ; read by: cell fusion ; dose: 40 µg/mL ; value: 89%
CC(=O)Nc1ccc(/C=C/c2ccc(N=C=S)cc2S(=O)(=O)O)c(S(=O)(=O)O)c1 ; strain: GB8 ; cells: JM ; read by: syncytia ; dose: 50 µg/mL ; value: 85%
COCCCCCCCCCCC(=O)O ; strain: IIIB ; cells: CEM + CEM-SS ; read by: cytopathic effect / XTT ; dose: 200 µM ; value: 18.4%
Nc1ncnc2c1ncn2CCOCP(=O)(O)O ; strain: BaL ; cells: Macrophage + Monocytes/macrophages ; read by: p24 / syncytia ; dose: 0.05 µM ; value: 77%
CC(C)[C@H](NC(=O)c1ccc2ccccc2n1)C(=O)N[C@@H](Cc1ccccc1)[C@H](O)CN1CC[C@@H](OCc2ccncc2)C[C@H]1C(=O)NC(C)(C)C ; strain: HXB2 ; cells: C8166 ; read by: p24 ; dose: 0.005 µM ; value: 90%
O=C1N(Cc2ccc(CO)cc2)[C@H](Cc2ccccc2)[C@H](O)[C@@H](O)[C@@H](Cc2ccccc2)N1Cc1ccc(CO)cc1 ; strain: A018A ; cells: PBMC ; read by: p24 ; dose: 0.24 µM ; value: 90%
Cc1nc(C(=O)C2CCCNC2)cc2c1[nH]c1ccccc12 ; strain: NL4-3 ; cells: CEM-GFP ; read by: p24 / ELISA / antigen ; dose: 1.71 µM ; value: 0%
[N-]=[N+]=NCCCCCCCCCCCC(=O)O ; strain: IIIB ; cells: CEM + CEM-SS ; read by: cytopathic effect / XTT ; dose: 20 µM ; value: 26.6%
CC(C)(C)NC(=O)[C@@H]1CCCN1C(=O)[C@@H](O)[C@H](Cc1ccccc1)NC(=O)[C@H](CC(N)=O)NC(=O)c1cnc2ccccc2n1 ; strain: IIIB ; cells: CEM ; read by: p24 ; dose: 0.5 µM ; value: 90%
CC(C)c1nc(CN(C)C(=O)N[C@H](C(=O)N[C@@H](Cc2ccccc2)C[C@H](O)[C@H](Cc2ccccc2)NC(=O)OCc2cncs2)C(C)C)cs1 ; strain: IIIB ; cells: MAGI ; read by: β-galactosidase ; dose: 0.1 µg/mL ; value: 0%
Oc1ccc(/C=C/c2cc(O)cc(O)c2)cc1 ; strain: EJC-R1 ; cells: PBMC ; read by: p24 ; setting: clinical isolate ; dose: 10 µM ; value: 55%
CCC[C@@]1(CCc2ccccc2)CC(O)=C([C@H](CC)c2cccc(NS(=O)(=O)c3ccc(C(F)(F)F)cn3)c2)C(=O)O1 ; strain: Isolate UJ00009 ; cells: PBMC ; read by: p24 ; dose: 0.32 µM ; value: 90%
CC(C)(O)c1cccc(CN2C(=O)N(Cc3cccc(C(C)(C)O)c3)[C@H](Cc3ccccc3)[C@H](O)[C@@H](O)[C@H]2Cc2ccccc2)c1 ; strain: HXB2 ; changes: PR-V82F ; cells: MT-2/MT-4 + MT-2 ; read by: p24 ; dose: 0.0843 µM ; value: 90%
CCCCCCCCCC(=O)O[C@@]12[C@H](OC(C)=O)[C@@H](C)[C@@]3(O)[C@@H](C=C(CO)C[C@]4(O)C(=O)C(C)=C[C@@H]34)[C@@H]1C2(C)C ; strain: IIIB ; cells: MT-4 + mouse plasma + MT-4 ; read by: cytopathic effect / MTT ; dose: 0.1 µg/mL ; value: 60.2%
C[C@H]1CCC/C=C/[C@@H]2C[C@H](O)C[C@H]2[C@@H](O)/C=C/C(=O)O1 ; strain: IIIB ; cells: MOLT-3 ; dose: 10 µg/mL ; value: 97%
OC[C@H]1NC[C@@H](O)[C@@H](O)[C@@H]1O ; strain: CLB 32 ; cells: U-937 ; read by: syncytia ; dose: 1000 µM ; value: 0%
C/C(=C(/CCO)SSCC1CCCO1)N(C=O)Cc1cnc(C)nc1N ; strain: LAV-1 ; cells: CEM/HIV-1(LAV-1) + CEM ; read by: p24 ; dose: 50 µM ; value: 95%
COC(=O)[C@@H](C)NC(=O)c1c(C)cc2c(c1O)-c1c(cc3c(c1O)C(=O)c1cc(OC)cc(O)c1C3=O)[C@H](O)[C@H]2O[C@@H]1O[C@H](CO)[C@H](N)[C@H](O)[C@H]1O ; strain: IIIB ; cells: MOLT-4 ; read by: syncytia ; dose: 30 µg/mL ; value: 100%
COC(=O)c1cc2c3ccccc3n(-c3ccccc3)c2c(C)n1 ; strain: NL4-3 ; cells: CEM-GFP ; read by: p24 / ELISA / antigen ; dose: 15.13 µM ; value: 0%
CC(C)Nc1cccnc1N1CCN(C(=O)c2cc3cc(N=CN(C)C)ccc3[nH]2)CC1 ; strain: Seropositive clinical isolate B ; cells: PBMC ; read by: MTT ; dose: 1 µM ; value: 100%

For reference, 5 entries again:

smiles,strain,changes,cells,read by,setting,dose,value
C/C(=C(/CCO)SSCC1CCCO1)N(C=O)Cc1cnc(C)nc1N,LAV-1,-,CEM/HIV-1(LAV-1) + CEM,p24,-,50 µM,95%
C[C@@H](Cn1cnc2c(N)nc(N)nc21)OCP(=O)(O)O,BaL,-,Macrophage + Monocytes/macrophages,p24 / syncytia,-,5 µM,97%
Cc1nc(C(=O)C2CCCNC2)cc2c1[nH]c1ccccc12,NL4-3,-,CEM-GFP,p24 / ELISA / antigen,-,1.71 µM,0%
COC(=O)c1cc2c3ccccc3n(-c3ccccc3)c2c(C)n1,NL4-3,-,CEM-GFP,p24 / ELISA / antigen,-,15.13 µM,0%
Nc1nc(Cl)nc2c1ncn2[C@H]1C=C[C@@H](CO)O1,HXBc2,-,C8166,RT activity,-,20 µM,75%